{"source": "the supplement of paper PMC9931576", "binders": {"B1": {"name": "BD57-0228 (protein)", "chain 1": "QLQLQESGPGLVKPSETLSLICTVSGGSIASSDSYWGWIRQSPVKGLEWIGTIYHSGTTFYNPSLKSRVTISRDTSKNQLSLRLRSVTAADTAVYYCVRPRGSPSWFDPWGQGTLVTVSS", "chain 2": "EIVLTQSPATLSLSPGERATLSCRASQSVSTYLAWYQQRPGQAPRLLIYDASNRATGIPARFSGSGSGTDFTLTISSLEPEDFAVYYCQQRSNWPPQLTFGGGTKVEIK"}, "B2": {"name": "BD57-0193 (protein)", "chain 1": "EVQLVQSGPEVKKPGESLKISCKGSGYIFTNYWIGWVRQMPGKGLEWMGIIYPGDSDTKYSPSFQGQVTFSVDESISTAYLQWSSLKASDTAIYYCARHLVPYYYDSSGYSEFDFWGQGTLVTVSS", "chain 2": "EIVLTQSPGTLSLSPGERATLSCRASQGISSDYLAWYQQKPGQAPRLLIYGASSRATGIPDRFSGGGSGTDFTLTISRLEREDFAVYHCQQYGYSPLTFGGGTKLEIK"}, "B3": {"name": "BD57-0215 (protein)", "chain 1": "QDHLVQSGAEVRRPGSSVKVSCKSSGGTFISYAITWVRQAPGQGLEWMGRIIPIVGIPDYAQKFQGRVTINADKSTNTAYMELSSLRSDDTAVYYCARGRHDRSGDYLRRGGSGKYFDLWGRGTLVTVSS", "chain 2": "DIQMTQSPSSLSASVGDRVTITCQASQDISNYLNWYQQKPGEAPKLLIYDASSLETGVPSRFSGSGSGTDFTLTISSLQPEDIATYYCQQFDDLPPITFGQGTRLEIK"}, "B4": {"name": "BD57-0226 (protein)", "chain 1": "QEQLVESGGGVVQPGRSLRLSCAASGFTFSHYGMHWVRQAPGKGLEWVAVISYDGSKRYYAVSVKGRFTISRDNSQNTVALQMNSLRAEDTAVYYCATYDITIFGVNRATGYGPFDIWGQGTMVTVSS", "chain 2": "QSVLTQPPSASGTPGQRVTISCSGSSSNIGSNFVHWYQQLPGTAPKLLMYGHNQRPSGVSDRFSASKSGTSASLAISGLRSQDEADYYCATWDDSLSGRVFGGGTKLTVL"}, "B5": {"name": "BD57-0211 (protein)", "chain 1": "QITLKESGPTLVKPTQTLTLTCSFSGFSLATDGVGVGWFRQPPGKAPEWLALIYWNDDHHYSPSLKTRLTITKDTSKNQVVLKLTNMDPVDTGTYYCAHTYDFWSGYSGGWGQGILVTVSS", "chain 2": "DIQMTQSPSSLSASVGDRITITCRASQPISSYLNWFQQKPGKAPKLLIYAAFNFQSGVPSRFSGSGSGTDFTLTINSLQPEDFATYYCQQTYSFPWTFGQGTKVEIK"}, "B6": {"name": "BD57-0190 (protein)", "chain 1": "QVQLVESGGGVVQPGRSLRLSCAASGFTFSTYAMHWVRQAPGKGLEWVATISYDGGSKFYADSVKGRFTISRDNSKNTLYLQMNSLRAEDTAVYYCAREMIVMLIITGPFDYWGQGTLVTVSS", "chain 2": "DIQMTQSPSSLSASVGDRVTITCRASQSISNYLNWYQQKPGKAPNLLIYDASSLQSGVPSRFSGSGSGTDFTLTISSLQPEDFATYYCQQSYSSPPLTFGGGTKVEIK"}, "B7": {"name": "BD57-0230 (protein)", "chain 1": "QVQLVESGGGVVQPGRSLRLSCAASGFTFSDYAFHWVRQAPGKGLEWLAVILSDGSSKFHADSVKGRFTISRDSSKNTLFLQMNSLRTEDTAVYYCARDWGTTVTYFDYWGHGTLVTVSS", "chain 2": "DIQMTQSPSSLSASVGDRVTITCRASQSIRSFLGWYQQTPGKAPKLLIYDASSLQSGVPSRFSGSGSGTDFTLTISSLQPEDFATYYCQQSYSTPPWTFGQGTKVEIK"}, "B8": {"name": "BD57-0209 (protein)", "chain 1": "EVQLLESGGGLVQPGGSLRLSCAASGFTFSSYAMTWVRQAPGKGLEWVSSISRSGDITTYADSVKGRFSFSRDNSKNTLFLQMNSLRAEDTAIYYCAKDSDLDRNVEVWDYWGQGTLVTVSS", "chain 2": "DIQMTQSPSSLSASVGDRVTITCRASQSIRYYLNWYQQKPGKAPNLLIYGASSLKSGVPSRFSGSGSGTDFTLTISSLQREDFATYYCQQSYSTPPYTFGQGTKLEIK"}, "B9": {"name": "BD57-0214 (protein)", "chain 1": "QVQLVQSGAEVKRPGASVEVSCKASGYTFTNYYIHWVRQAPGQGLEWMGIINPGGGSTMSAQTFQGRVTMTRDTSTTTVYMELNSLRSDDTAIYYCARGSQSFACSGSICDEKYDYYGMDVWGQGTTVTVSS", "chain 2": "DIVMTQSPLSLPVTPGEPAAISCRSSQSLLHSSGFNYLDWYLQRPGQPPQLLIFLGSNRASGVPDRFSGSGSGTDFTLKISRVEAEDVGVYYCMQALQPPQITFGQGTRLDIK"}, "B10": {"name": "BD57-0220 (protein)", "chain 1": "QVQLLQSGAEVKKPGASVRVSCKASGYSFSNFYIHWVRQAPGQGLQWMGIINPGGDSTSYAKKFQGRIIMASDTSTSTVYMDLSGLRSADTAVYYCARGGIVPAATQDFDYWGQGTLVTVSS", "chain 2": "EIVLTQSPATLSLSPGERATLSCRASQSVGNYLGWYQQKPGQAPRLLIYDASNRATGVPARFSGSGSGTDFTLTISRLEPEDFAVYFCLQRGNWPREEFTFGPGTKVDIK"}, "B11": {"name": "BD57-0223 (protein)", "chain 1": "EVQLVESGGGLVKPGGSLRLSCAASGFTFSNAWLSWVRQAPGKGLEWVGRIKSKIDGETTDYAAPVKGRITMSRDDSKNTLYLQMNSLKTEDTAMYYCTTESSLYSSSGYYSDGFGDWYFDLWGRGTLVTVSS", "chain 2": "QSALTQPRSVSGSPGQSVTISCTGTSSDVGGYNYVSWYQQHPGKAPKLMIYDVTERPSGVPDRFSGSKSGNTASLTISGLQAEDEADYYCCSYAGIYTLYVFGTGTKVTVL"}, "B12": {"name": "BD57-0210 (protein)", "chain 1": "EVQLVESGGGLVQPGGSLRLSCAVSGFTVSSNFMTWVRQAPGKGLEWVSLIHSGGSTFYADSVKGRFTISRHTSKNTVYLQMNTLGAEDTAVYYCARSEWLRGAFDLWGQGTMVTVSS", "chain 2": "NFMLTQPHSVSESPGKTVTISCTGSSGSIASNYVQWYQQRPGSAPTNLIYEDNQRPSGVPDRFSGSIDSSSNSASLTISGLKTEDEADYYCQSYDGNNLKWVFGGGTKLTVL"}}, "note": "Human monoclonal antibodies against the spike receptor-binding domain (heavy:light variable regions). IC50 against pseudoviruses bearing the spike of naturally observed variants; lower = stronger; >10 µg/ml means not reached at the top dose. No active / inactive call. The stated detection limit is 0.0005 µg/ml; values near or below 0.001 µg/ml lie at the floor of the assay.", "data": [{"biological_target": "SARS-CoV-2 Omicron BA.1 spike pseudovirus", "assay": "pseudovirus neutralization IC50; higher = weaker neutralization", "procedure": "(§1)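 Single-round VSV luciferase pseudovirus mixed with antibody dilutions for 1 h and put on Huh-7 cells for about a day; IC50 from the dose curve.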", "units": {"pseudovirus neutralization IC50": "µg/mL"}, "values": [{"binder": "B1", "pseudovirus neutralization IC50": "> 10"}, {"binder": "B2", "pseudovirus neutralization IC50": 3.83}, {"binder": "B3", "pseudovirus neutralization IC50": "> 10"}, {"binder": "B4", "pseudovirus neutralization IC50": "> 10"}, {"binder": "B5", "pseudovirus neutralization IC50": 1.81}, {"binder": "B6", "pseudovirus neutralization IC50": "> 10"}, {"binder": "B7", "pseudovirus neutralization IC50": "> 10"}, {"binder": "B8", "pseudovirus neutralization IC50": "> 10"}, {"binder": "B9", "pseudovirus neutralization IC50": 0.997}, {"binder": "B10", "pseudovirus neutralization IC50": "> 10"}, {"binder": "B11", "pseudovirus neutralization IC50": 0.0308}, {"binder": "B12", "pseudovirus neutralization IC50": 1.31}]}, {"biological_target": "SARS-CoV-2 Omicron BA.2 spike pseudovirus", "assay": "pseudovirus neutralization IC50; higher = weaker neutralization", "procedure": "as §1", "units": {"pseudovirus neutralization IC50": "µg/mL"}, "values": [{"binder": "B1", "pseudovirus neutralization IC50": "> 10"}, {"binder": "B2", "pseudovirus neutralization IC50": 3.9}, {"binder": "B3", "pseudovirus neutralization IC50": 0.00169}, {"binder": "B4", "pseudovirus neutralization IC50": "> 10"}, {"binder": "B5", "pseudovirus neutralization IC50": 2.74}, {"binder": "B6", "pseudovirus neutralization IC50": "> 10"}, {"binder": "B7", "pseudovirus neutralization IC50": "> 10"}, {"binder": "B8", "pseudovirus neutralization IC50": "> 10"}, {"binder": "B9", "pseudovirus neutralization IC50": 1.66}, {"binder": "B10", "pseudovirus neutralization IC50": "> 10"}, {"binder": "B11", "pseudovirus neutralization IC50": 0.0216}, {"binder": "B12", "pseudovirus neutralization IC50": 1.85}]}, {"biological_target": "SARS-CoV-2 Omicron BA.2.75 spike pseudovirus", "assay": "pseudovirus neutralization IC50; higher = weaker neutralization", "procedure": "as §1", "units": {"pseudovirus neutralization IC50": "µg/mL"}, "values": [{"binder": "B1", "pseudovirus neutralization IC50": "> 10"}, {"binder": "B2", "pseudovirus neutralization IC50": 4.1}, {"binder": "B3", "pseudovirus neutralization IC50": "> 10"}, {"binder": "B4", "pseudovirus neutralization IC50": "> 10"}, {"binder": "B5", "pseudovirus neutralization IC50": 1.45}, {"binder": "B6", "pseudovirus neutralization IC50": "> 10"}, {"binder": "B7", "pseudovirus neutralization IC50": "> 10"}, {"binder": "B8", "pseudovirus neutralization IC50": "> 10"}, {"binder": "B9", "pseudovirus neutralization IC50": 2}, {"binder": "B10", "pseudovirus neutralization IC50": "> 10"}, {"binder": "B11", "pseudovirus neutralization IC50": 0.027}, {"binder": "B12", "pseudovirus neutralization IC50": 2.55}]}, {"biological_target": "SARS-CoV-2 Omicron BA.5 spike pseudovirus", "assay": "pseudovirus neutralization IC50; higher = weaker neutralization", "procedure": "as §1", "units": {"pseudovirus neutralization IC50": "µg/mL"}, "values": [{"binder": "B1", "pseudovirus neutralization IC50": "> 10"}, {"binder": "B2", "pseudovirus neutralization IC50": 3.97}, {"binder": "B3", "pseudovirus neutralization IC50": 3.78}, {"binder": "B4", "pseudovirus neutralization IC50": "> 10"}, {"binder": "B5", "pseudovirus neutralization IC50": 3.39}, {"binder": "B6", "pseudovirus neutralization IC50": "> 10"}, {"binder": "B7", "pseudovirus neutralization IC50": "> 10"}, {"binder": "B8", "pseudovirus neutralization IC50": "> 10"}, {"binder": "B9", "pseudovirus neutralization IC50": 1.92}, {"binder": "B10", "pseudovirus neutralization IC50": "> 10"}, {"binder": "B11", "pseudovirus neutralization IC50": 0.122}, {"binder": "B12", "pseudovirus neutralization IC50": 1.65}]}, {"biological_target": "SARS-CoV-2 Omicron BQ.1.1 spike pseudovirus", "assay": "pseudovirus neutralization IC50; higher = weaker neutralization", "procedure": "as §1", "units": {"pseudovirus neutralization IC50": "µg/mL"}, "values": [{"binder": "B1", "pseudovirus neutralization IC50": "> 10"}, {"binder": "B2", "pseudovirus neutralization IC50": "> 10"}, {"binder": "B3", "pseudovirus neutralization IC50": "> 10"}, {"binder": "B4", "pseudovirus neutralization IC50": "> 10"}, {"binder": "B5", "pseudovirus neutralization IC50": 3.44}, {"binder": "B6", "pseudovirus neutralization IC50": "> 10"}, {"binder": "B7", "pseudovirus neutralization IC50": "> 10"}, {"binder": "B8", "pseudovirus neutralization IC50": "> 10"}, {"binder": "B9", "pseudovirus neutralization IC50": 3.7}, {"binder": "B10", "pseudovirus neutralization IC50": "> 10"}, {"binder": "B11", "pseudovirus neutralization IC50": "> 10"}, {"binder": "B12", "pseudovirus neutralization IC50": 2.65}]}, {"biological_target": "SARS-CoV-2 Omicron XBB spike pseudovirus", "assay": "pseudovirus neutralization IC50; higher = weaker neutralization", "procedure": "as §1", "units": {"pseudovirus neutralization IC50": "µg/mL"}, "values": [{"binder": "B1", "pseudovirus neutralization IC50": "> 10"}, {"binder": "B2", "pseudovirus neutralization IC50": 3.56}, {"binder": "B3", "pseudovirus neutralization IC50": "> 10"}, {"binder": "B4", "pseudovirus neutralization IC50": "> 10"}, {"binder": "B5", "pseudovirus neutralization IC50": 2.85}, {"binder": "B6", "pseudovirus neutralization IC50": "> 10"}, {"binder": "B7", "pseudovirus neutralization IC50": "> 10"}, {"binder": "B8", "pseudovirus neutralization IC50": "> 10"}, {"binder": "B9", "pseudovirus neutralization IC50": 3.71}, {"binder": "B10", "pseudovirus neutralization IC50": "> 10"}, {"binder": "B11", "pseudovirus neutralization IC50": 8.79}, {"binder": "B12", "pseudovirus neutralization IC50": 2.61}]}, {"biological_target": "SARS-CoV-2 early D614G spike pseudovirus", "assay": "pseudovirus neutralization IC50; higher = weaker neutralization", "procedure": "as §1", "units": {"pseudovirus neutralization IC50": "µg/mL"}, "values": [{"binder": "B1", "pseudovirus neutralization IC50": "> 10"}, {"binder": "B2", "pseudovirus neutralization IC50": "> 10"}, {"binder": "B3", "pseudovirus neutralization IC50": 0.000487}, {"binder": "B4", "pseudovirus neutralization IC50": 0.334}, {"binder": "B5", "pseudovirus neutralization IC50": 1.84}, {"binder": "B6", "pseudovirus neutralization IC50": "> 10"}, {"binder": "B7", "pseudovirus neutralization IC50": "> 10"}, {"binder": "B8", "pseudovirus neutralization IC50": "> 10"}, {"binder": "B9", "pseudovirus neutralization IC50": 5.18}, {"binder": "B10", "pseudovirus neutralization IC50": "> 10"}, {"binder": "B11", "pseudovirus neutralization IC50": 0.0142}, {"binder": "B12", "pseudovirus neutralization IC50": 0.197}]}]}
